Assay results reported in paper PMC11489056, “Molecular mechanism of a triazole-containing inhibitor of Mycobacterium tuberculosis DNA gyrase” (iScience, 2024).

Key:
K. pneumoniae = test: MIC, agar dilution method, ESKAPE strains; assay type: cell-based, Klebsiella pneumoniae
E. coli = test: MIC, agar dilution method, ESKAPE strains; assay type: cell-based, Escherichia coli

COc1ccc2nccc(-n3cc(CCNCc4ccc5c(c4)NC(=O)CS5)nn3)c2n1 [BDM71403 (10a)]
Ciprofloxacin MIC/BDM71403 MIC (K. pneumoniae; K. pneumoniae 10270, VIM): > 8 µg/mL
Ciprofloxacin MIC/BDM71403 MIC (K. pneumoniae; K. pneumoniae 10272, 0XA-48): 0.25 µg/mL
Ciprofloxacin MIC/BDM71403 MIC (K. pneumoniae; K. pneumoniae 10277, KPC-2): 16 µg/mL
MIC improvement over FQs (E. coli): 32 fold
Ciprofloxacin MIC/BDM71403 MIC (E. coli; E. coli 9003, BLSE): 16 µg/mL
Ciprofloxacin MIC/BDM71403 MIC (E. coli; E. coli 10269, NDM-1): 32 µg/mL
Ciprofloxacin MIC/BDM71403 MIC (E. coli; E. coli 10273, KPC-2): > 32 µg/mL
Ciprofloxacin MIC/BDM71403 MIC (E. coli; E. coli 10385, NDM-1): > 533 µg/mL
Ciprofloxacin MIC/BDM71403 MIC (E. coli; E. coli 10386, NDM-1): > 32 µg/mL
